Anti-infective test results gathered from many reports (values: NIAID ChemDB through PubChem).

Common to all: tests in culture

Percent inhibition refers to the dose given; in toxicity tests it is the harm to the cells.

compound	dose	strain	agent	read-out	cells	result
CC1(CO)CCC(Cc2nc3ncnc(N)c3[nH]2)C1(C)C	-	JAPAN/305/57	Influenza A virus (H2N2)	EC50	MDCK	>250 µg/mL
Cc1ccccc1Cn1cnc(=N)c2[nH]cnc21	12 µg/mL	-	Vaccinia virus	inhibition	BSC-1	0%
O=[N+]([O-])c1ccc2c(c1)c(N=NC(=S)NC1CCCCC1)c(O)n2CN1CCCCC1	-	-	Yellow fever virus	EC50	VERO	<0.8 µg/mL
Nc1nc(=O)n([C@@H]2C=C(CO)[C@@H](O)[C@H]2O)cc1Br	-	7124	Variola virus	EC50	-	>100 µg/mL
CC(=O)O[C@H]1CC2=CCC3C(CCC4(C)C(C(CCC=C(C)C)COS(=O)(=O)O)CCC34)C2(C)C[C@@H]1OS(=O)(=O)O	80 µg/mL	IV4454	Junin virus	inhibition	VERO	44.7%
O=c1cnn([C@@H]2O[C@H](CO)[C@@H](O)[C@H]2O)c(=S)[nH]1	-	Nakayama	Japanese encephalitis virus	EC50	VERO	2.62 µg/mL
Cc1ccc(NC(=S)N=Nc2c(O)n(CN3CCCCC3)c3ccc([N+](=O)[O-])cc23)cc1	-	-	Yellow fever virus	EC50	VERO	1.59 µg/mL
CC[C@@H](C(C)C)[C@H](O)[C@@H](O)[C@@H](C)[C@H]1CC[C@H]2[C@@H]3CC(=O)[C@H]4C[C@H](O)[C@H](O)C[C@]4(C)[C@H]3CC[C@]12C	-	XJCI3	Junin virus	EC50	VERO	1.8 µM
CC12CCC3C(C[C@H](OS(=O)(=O)O)[C@H]4C[C@@H](OS(=O)(=O)O)CCC34C)C1CCC2C(=O)CO	80 µg/mL	IV4454	Junin virus	inhibition	VERO	10.5%
CC[C@@H](C(C)C)[C@H](O)[C@@H](O)[C@@H](C)[C@H]1CC[C@H]2[C@@H]3CC(=O)[C@H]4C[C@@H](OC(C)=O)CC[C@]4(C)[C@H]3CC[C@]12C	-	IV4454	Junin virus	EC50	VERO	0.6 µM
CC1(CO)CCC(Cn2cnc3c(=O)[nH]cnc32)C1(C)C	-	JAPAN/305/57	Influenza A virus (H2N2)	EC50	MDCK	>250 µg/mL
CC(C)=CCCC(COS(=O)(=O)O)C1CCC2C3CC=C4C[C@H](O)[C@@H](OS(=O)(=O)O)CC4(C)C3CCC12C	80 µg/mL	IV4454	Junin virus	inhibition	VERO	27.2%
Nc1ncnc2c1ncn2[C@@H]1C=C(CO)[C@@H](O)[C@H]1O	-	MPX	Monkeypox virus	EC50	VERO	0.21 µg/mL
CC(O)c1ccc2c(c1)S(=O)c1ccccc1O2	10 µg/mL	TYPE 3	Poliovirus	inhibition	BSC-1	15%
CCCn1cnc(=N)c2[nH]cnc21	100 µg/mL	-	Vaccinia virus	inhibition	BSC-1	0%
Brc1ccc(C2=Cc3cc(Br)ccc3OC2)cc1	-	IA (TYPE 2)	Poliovirus	EC50	HEP-2	>10 µM
CC[C@@H](C(C)C)[C@@H](O)[C@H](O)[C@@H](C)[C@H]1CC[C@H]2[C@@H]3CC(=O)[C@H]4C[C@@H](OC(C)=O)CC[C@]4(C)[C@H]3CC[C@]12C	-	IV4454	Junin virus	EC90	VERO	14.5 µM
CC(N)c1ccc2c(c1)Sc1ccccc1O2	10 µg/mL	TYPE 3	Poliovirus	inhibition	BSC-1	50%
COc1ccc(-c2cc(N3CCCCC3)no2)c(O)c1	-	-	African swine fever virus	EC50	VERO	>364 µM
CC[C@@H](C(C)C)[C@@H](O)[C@H](O)[C@@H](C)[C@H]1CC[C@H]2[C@@H]3CC(=O)[C@H]4C[C@H](O)[C@H](O)C[C@]4(C)[C@H]3CC[C@]12C	-	IV4454	Junin virus	EC90	VERO	12.6 µM
NC12CC3CC(CC(C3)C1)C2	46.8 µg/mL	A2/ADACHI	Influenza A virus (H2N2)	inhibition	CEF	98.2%
O=C1Nc2ccc([N+](=O)[O-])cc2/C1=N/N=C1/SCC(=O)N1c1ccccc1	-	-	Yellow fever virus	EC50	VERO	>20 µg/mL
Nc1ccn(C[C@@H](CO)OCP(=O)(O)O)c(=O)n1	-	Isolate Shahzaman	Variola virus	EC50	VERO	11 µg/mL
CC(C)(O)c1ccc2c(c1)Sc1ccccc1O2	10 µg/mL	TYPE 3	Poliovirus	inhibition	BSC-1	100%
Nc1ncnc2c1ncn2[C@@H]1C[C@H](NC=O)[C@@H](O)[C@H]1O	-	-	Yellow fever virus	EC50	HFF	>100 µg/mL
Cn1cc(NC(=O)c2cc(NC(=O)c3cc(NC=O)cn3C)cn2C)cc1C(=O)NCCC(=N)N	50 µg/mL	Noguchi	Vaccinia virus	inhibition	BSC-1	100%
Cc1ccc(N2C(=O)CS/C2=N/N=C2\C(=O)Nc3ccc([N+](=O)[O-])cc32)cc1	-	-	Yellow fever virus	EC50	VERO	4 µg/mL
N=C(N)c1ncn([C@@H]2O[C@H](CO)[C@@H](O)[C@H]2O)n1	-	-	Venezuelan equine encephalitis virus	EC50	-	>100 µM
CC(=O)OC[C@H]1O[C@@H](n2ncc(=S)[nH]c2=O)C(OC(C)=O)C1OC(C)=O	-	Nakayama	Japanese encephalitis virus	EC50	VERO	23.1 µg/mL
Nc1nc(=O)n([C@@H]2C=C(CO)[C@@H](O)[C@H]2O)cc1I	-	7124	Variola virus	EC50	-	>100 µg/mL
c1ccc(C2COc3ccccc3C2)cc1	10 µM	SABIN (TYPE 2)	Poliovirus	inhibition	HEP-2	47%
Cn1cc(NC(=O)c2cc(NC(=O)CN=C(N)N)cn2C)c(C(=O)NCCC(=N)N)c1	50 µg/mL	Noguchi	Vaccinia virus	inhibition	BSC-1	73%
CC(=O)N[C@H]1[C@H]([C@H](O)[C@H](O)CO)OC(C(=O)O)=C[C@@H]1N=C(N)N	-	H7N3 A/FPV/ENG/1/63	Influenza A virus	EC50	MDCK	≥1 µM
Clc1ccc2c(c1)CC(c1ccccc1)CO2	-	SABIN (TYPE 2)	Poliovirus	EC50	HEP-2	>10 µM
CCCCNC(=S)N=Nc1c(O)n(CN2CCOCC2)c2ccc([N+](=O)[O-])cc12	-	-	Yellow fever virus	EC50	VERO	>20 µg/mL
Nc1nccc2c1ncn2[C@@H]1O[C@H](CO)[C@@H](O)[C@H]1O	300 µM	-	Newcastle disease virus	inhibition	Chick embryo cells	43.2%
CC(=O)OC[C@H]1O[C@@H](n2ncc(=O)[nH]c2=S)C(OC(C)=O)C1OC(C)=O	-	Trinidad donkey	Venezuelan equine encephalitis virus	EC50	VERO	6.42 µg/mL
Cn1c(O)c(N=NC(N)=S)c2ccccc21	-	Isolate Yamada	Variola virus	EC50	LLC-MK2	43.3 µg/mL
N=c1ncn(Cc2ccc(Cl)cc2Cl)c2nc[nH]c12	6 µg/mL	-	Vaccinia virus	inhibition	BSC-1	0%
Clc1ccc(C2=Cc3ccccc3OC2)cc1	10 µM	SABIN (TYPE 2)	Poliovirus	inhibition	HEP-2	20%
CC1(CO)CCC(Cn2nnc3c(N)ncnc32)C1(C)C	-	JAPAN/305/57	Influenza A virus (H2N2)	EC50	MDCK	>50 µg/mL
CCCCn1cnc(=N)c2[nH]cnc21	50 µg/mL	-	Vaccinia virus	inhibition	BSC-1	0%
CCN(CC)c1cc(-c2ccc(OC)cc2OC)on1	-	-	African swine fever virus	EC50	VERO	>362 µM
COC(=O)c1ncn([C@@H]2C[C@@H](Oc3ccc(C)cc3)[C@H](COc3ccc(C)cc3)O2)c1C(=O)OC	-	-	Lassa virus	EC50	-	2 µg/mL
O=c1cnn([C@@H]2O[C@H](CO)[C@@H](O)[C@H]2O)c(=O)[nH]1	-	Trinidad donkey	Venezuelan equine encephalitis virus	EC50	VERO	1.28 µg/mL
O=c1[nH]cnc2c1ncn2[C@@H]1C=C(CO)[C@@H](O)[C@H]1O	-	7124	Variola virus	EC50	MK2	>100 µg/mL
CC12CC[C@H](OS(=O)(=O)O)CC1=CCC1C2CCC2(C)C(C(=O)CO)CCC12	40 µg/mL	IV4454	Junin virus	inhibition	VERO	0%
CC(O)c1ccc2c(c1)Sc1ccccc1S2	10 µg/mL	TYPE 3	Poliovirus	inhibition	BSC-1	100%
CCOc1ccc(-c2cc(N(CC)CC)no2)c(O)c1	-	-	African swine fever virus	EC50	VERO	>362 µM
CC(=O)OC(C)c1ccc2c(c1)Sc1ccccc1O2	0.4 µg/mL	TYPE 3	Poliovirus	inhibition	BSC-1	33%
COc1ccc(-c2cc(N3CCCC3)no2)c(O)c1	-	-	African swine fever virus	EC50	VERO	>384 µM
N=c1ncn(Cc2cccc([N+](=O)[O-])c2)c2nc[nH]c12	25 µg/mL	-	Vaccinia virus	inhibition	BSC-1	0%
CC(OC(=O)Nc1ccc2ccccc2c1)c1ccc2c(c1)Sc1ccccc1O2	0.4 µg/mL	TYPE 3	Poliovirus	inhibition	BSC-1	20%

Lines come from different laboratories, so protocols vary. Blank or dashed fields: not listed here. ECn is the concentration giving n% inhibition of infection, replication or growth.